Measured values from patent US20090004680A1.

Biological target: Mouse synaptosomes (BoNT/A acceptor on a mouse synaptosome preparation)

With “Active BoNT/A (botulinum neurotoxin type A) (from UniProt P0DPI0 2-1296)” the percent binding inhibition was over 20.
